Anti-infective test results gathered from many reports (values: NIAID ChemDB through PubChem).

All rows: tests in culture; agent: Aspergillus niger; read by: agar; measure: MIC

Lines come from different laboratories, so protocols vary. An empty or dashed field is not shown.

| structure | strain or isolate | result |
|---|---|---|
| CN1CCC(n2cc(-c3nc(-c4ccccc4)n[nH]3)nn2)CC1 |  | 50 µg/mL |
| CN1CCC(n2cc(CN3CCc4sccc4C3)nn2)CC1 | NCIM 1196 | >200 µg/mL |
| O=C(CSc1nnc(-c2ccc3ncccc3c2)o1)Nc1nc2ccc(Cl)cc2s1 |  | 50 µg/mL |
| COc1ccc(Cc2nc(CN3CCc4sccc4C3)n[nH]2)cc1 | NCIM 1196 | 15 µg/mL |
| CS(=O)(=O)N1CCC(n2cc(-c3nc(-c4ccccc4)n[nH]3)nn2)CC1 |  | 40 µg/mL |
| O=C1CSC(c2c(Cl)cccc2Cl)N1CCc1ccccc1 | NCIM 742 | 35 µg/mL |
| Cn1c(=O)cc(Oc2nc(Nc3ccc(C#N)cc3)nc(Nc3cnccn3)n2)c2ccccc21 | MTCC 2825 | 250 µg/mL |
| Cc1cnc(N2C(=O)CSC2c2c(Cl)cccc2Cl)c(C)c1 | NCIM 742 | 42 µg/mL |
| O=C(c1ccccc1)N1CCC(n2cc(CN3CCc4sccc4C3)nn2)CC1 | NCIM 1196 | >200 µg/mL |
| Cn1c(=O)cc(Oc2nc(Nc3ccc(C#N)cc3)nc(Nc3nc4ccccc4s3)n2)c2ccccc21 | MTCC 2825 | 200 µg/mL |
| N#Cc1ccc(Nc2nc(Oc3cccc4cccnc34)nc(N3CCCCC3)n2)cc1C(F)(F)F | MTCC 282 | 25 µg/mL |
| COc1cccc(OC)c1C1SCC(=O)N1c1ncccc1C | NCIM 742 | 20 µg/mL |
| CN1CCC(n2cc(-c3nc(-c4ccc(Cl)cc4)n[nH]3)nn2)CC1 |  | 40 µg/mL |
| O=C(CSc1nnc(-c2ccc3ncccc3c2)o1)Nc1nc2ccc(F)cc2s1 |  | 12.5 µg/mL |
| CC1Oc2ccccc2/C(=N/Nc2ccccc2)C1n1ccnc1 | PTCC 5012 | 16 µg/mL |
| C=CCSS(=O)C=C |  | 100000 µg/mL |
| Cc1ccc2nc(Nc3nc(Nc4ccc(C#N)cc4)nc(Oc4cc(=O)n(C)c5ccccc45)n3)sc2c1 | MTCC 2825 | 500 µg/mL |
| Clc1ccc(-c2n[nH]c(CN3CCc4sccc4C3)n2)cc1 | NCIM 1196 | 100 µg/mL |
| CC(=O)Nc1ccc(NC(=O)CSc2nnc(-c3ccc4ncccc4c3)o2)cc1 |  | 12.5 µg/mL |
| CCN1CCC(n2cc(-c3nc(-c4ccccc4)n[nH]3)nn2)CC1 |  | 60 µg/mL |
| O=[N+]([O-])c1ccc(N/N=C/C=C/c2ccccc2)c([N+](=O)[O-])c1 |  | 30 µg/mL |
| N#Cc1ccc(Nc2nc(Oc3cccc4cccnc34)nc(N3CCN(c4cccc(Cl)c4Cl)CC3)n2)cc1C(F)(F)F | MTCC 282 | 25 µg/mL |
| Cc1ccc(NC(=O)CSc2nnc(-c3ccc4ncccc4c3)o2)cc1 |  | 100 µg/mL |
| c1ccc(-c2n[nH]c(-c3cn(C4CCNCC4)nn3)n2)cc1 |  | 70 µg/mL |
| c1ccc(C(c2ccccc2)c2n[nH]c(CN3CCc4sccc4C3)n2)cc1 | NCIM 1196 | >200 µg/mL |
| Cc1ccc2nc(NC(=O)CSc3nnc(-c4ccc5ncccc5c4)o3)sc2c1 |  | 100 µg/mL |
| Cn1c(=O)cc(Oc2nc(Nc3ccc(C#N)cc3)nc(Sc3nnc(-c4ccncc4)o3)n2)c2ccccc21 | MTCC 2825 | 50 µg/mL |
| OC(Cn1cncn1)(Cn1cncn1)c1ccc(F)cc1F | NCIM 1196 | 10 µg/mL |
| N#Cc1ccc(Nc2nc(Oc3cccc4cccnc34)nc(N3CCN(c4ccccc4)CC3)n2)cc1C(F)(F)F | MTCC 282 | 100 µg/mL |
| O=C(CSc1nnc(-c2ccc3ncccc3c2)o1)Nc1ccc(F)cc1 |  | 25 µg/mL |
| Cn1c(=O)cc(Oc2nc(Nc3ccc(C#N)cc3)nc(Nc3nc4ccc([N+](=O)[O-])cc4s3)n2)c2ccccc21 | MTCC 2825 | 12.5 µg/mL |
| O=C(CSc1nnc(-c2ccc3ncccc3c2)o1)Nc1nc2ccc(Br)cc2s1 |  | 25 µg/mL |
| COc1ccc(OC)c(C2SCC(=O)N2c2ccccn2)c1 | NCIM 742 | 65 µg/mL |
| Clc1ccc2c(c1)OCC(n1ccnc1)/C2=N\Nc1ccccc1 | PTCC 5012 | 64 µg/mL |
| Clc1cccc(-c2n[nH]c(CN3CCc4sccc4C3)n2)c1 | NCIM 1196 | 150 µg/mL |

The last 3 rows once more:

structure	strain or isolate	result
COc1ccc(OC)c(C2SCC(=O)N2c2ccccn2)c1	NCIM 742	65 µg/mL
Clc1ccc2c(c1)OCC(n1ccnc1)/C2=N\Nc1ccccc1	PTCC 5012	64 µg/mL
Clc1cccc(-c2n[nH]c(CN3CCc4sccc4C3)n2)c1	NCIM 1196	150 µg/mL